According to publication PMC3405095:

Target: PhoB (PhoBKP) (Klebsiella pneumoniae NTUH-K2044) (UniProt A0ACD7U063)
Assay: EMSA
Settings: 50-500 nM PhoB, 1 ug poly(dI-dC), competed by 10-fold excess unlabeled kpnO promoter, 10 mM Tris-HCl pH 8.0, 2 mM EDTA, 0.5 mM DTT, 50 mM NaCl, 10% glycerol, 5% native PAGE, temperature not stated, recombinant protein, residues 1-237, protein details: N-terminal His6 (pET-28c), label: 32P 5' end label, probe letters rebuilt from the primers and the genome

Sequence: GGCCTAATTGATTGATTAATAGTCGTTAGGGAATCATTAGCCGTAGCACAGATAAATTAAAGTTGTGTAAAGAAGGGTAAAAAAAACCGGATGCGAGGCATCCGGTTGAAATAGGGGTAAACAGACATTCAGAACTGAATGACGGTAATAAATAAAGTTAATGATGATAGCGACTCTTATTTTAGCCACCAATGAACATTTTGTTTTACCATTCAGTGCTATAGATATGTTGTCGTCTATCACTTTGATTATAAAAGGTTAAATATTTTTTTTGATGATTAGTGCGTATTTCCCTGACCATTTTGCGGTGAAAAAAGTTCCGCTGAATTTACAAATTGAAACATCTTGTGGGAACTTTGAAACATCTTAGAAGTTTTAGTATCATATTCTTGTTGGATTATTCTGCATTTTGCAGCACAATGAAATAGCCGACTGATTAGAAGGGTAATCAGTAAGCAGTGGCATAATAAAAGGCATATAACAAACAGAGGGTTAATAAC (double strand) [kpnO promoter]
- binding result: binds
